This series concerns the molecule itself. Kind of series: Rayleigh light scattering.

These results are taken from PMC7504336, “Ribosomal RNA Modulates Aggregation of the Podospora Prion Protein HET-s” (International Journal of Molecular Sciences, 2020).

B1: HET-s prion protein from Podospora anserina (natural protein, UniProt Q03689 1-289, looked up)
chain: MSEPFGIVAGALNVAGLFNNCVDCFEYVQLGRPFGRDYERCQLRLDIAKARLSRWGEAVKINDDPRFHSDAPTDKSVQLAKSIVEEILLLFESAQKTSKRYELVADQQDLVVFEDKDMKPIGRALHRRLNDLVSRRQKQTSLAKKTAWALYDGKSLEKIVDQVARFVDELEKAFPIEAVCHKLAEIEIEEVEDEASLTILKDAAGGIDAAMSDAAAQKIDAIVGRNSAKDIRTEERARVQLGNVVTAAALHGGIRISDQTTNSVETVVGKGESRVLIGNEYGGKGFWDN
Consider B1, for which the binding result is on record as “binds”.
